Measurements from patent US12296017B2 (TAMBO, INC., priority 2017, dated 2025).

Test: In vivo catch and release of TCO-rhodamine at implanted HMT in mice

In the case of `CN(C)c1ccc2c(-c3ccc(C(=O)NCCNC(=O)OC4/C=C/CCCCC4)cc3C(=O)[O-])c3ccc(=[N+](C)C)cc-3oc2c1` (centres unmarked) [Rh-R-TCO], the “fluorescence around the site of HMT implantation” value (5-10 minutes after 100 nmoles by tail vein, mouse with 2.5% HMT) is reported as “large increase in fluorescence” and the “decay of fluorescence signal (release)” value (after each dose) is reported as “decreases within two hours to background levels”.
